Consider 1 compound from article PMC5613016, “GRL-09510, a Unique P2-Crown-Tetrahydrofuranylurethane -Containing HIV-1 Protease Inhibitor, Maintains Its Favorable Antiviral Activity against Highly-Drug-Resistant HIV-1 Variants in vitro” (Scientific Reports, 2017).

The subject of this series is HIV-1NL4-3. In words: In vitro selection of resistant HIV-1 variants in MT-4 cells. In kind it is cell-based. Particulars: GRL-09510 selection. The source says: MT-4 cells (10^5/ml) were exposed to HIV-1NL4-3 (500 TCID50) and cultured in the presence of compounds at an initial concentration of its EC50 value. Viral replication was monitored by the determination of the amount of p24 produced by MT-4 cells. The supernatants were harvested on day 7 and were used to infect fresh MT-4 cells for the next round of culture in the presence of increasing concentrations of each compound. Proviral DNAs obtained from the lysates of infected cells were subjected to sequencing. This selection procedure was carried out until the drug concentration reached 5 μM as previously described[20]–[22]).

In the case of `COc1ccc(S(=O)(=O)N(CC(C)C)CC(O)C(Cc2ccccc2)NC(=O)OC2C3COC4OCC2C4C3)cc1` (stereo not shown) [GRL-09510], the “p24 concentration of selection culture supernatant, passage 8” value was determined as 564 ng/mL; the “p24 concentration of selection culture supernatant, passage 15” value amounted to 398 ng/mL; the “p24 concentration of selection culture supernatant, passage 28” value was found to be 268 ng/mL; the “p24 concentration of selection culture supernatant, passage 36” value was 265 ng/mL.
